{
  "source": "patent US20020151568A1",
  "about": "“Piperidinylethyl-, phenoxyethyl-, and beta-fluorophenethyl-substituted thiourea compounds with potent anti-HIV activity” (priority 2000, published 2002)",
  "assay_type_in_all_cases": "cell-based",
  "key": {"[1]": {"test_system": "HIV-1 strain RT-MDR (V106A)", "assay": "Inhibition of replication of NNI-resistant HIV-1 strain RT-MDR in H9 cells", "experimental": "(§1) The ability of Compounds 4 (HI-516), 11 (HI-566), and 12 (HI-565) to inhibit the replication of NNI-resistant HIV-1 strains, A17 (Y181C) and RT-MDR (V106A), was analyzed. The anti-HIV activity of the compounds was measured by determining their ability to inhibit the replication of HIV-1 strains A17 in PBMC from healthy volunteer donors and RT-MDR in H9 cells.\n(§2) Compounds 4, 11, and 12 were compared with nevirapine or delavirdine, two known non-nucleoside reverse transcriptase inhibitors of HIV-1 RT."}, "[2]": {"test_system": "HIV-1 strain A17 (Y181C)", "assay": "Inhibition of replication of NNI-resistant HIV-1 strain A17 in PBMC", "experimental": "as §1, §2"}, "[3]": {"test_system": "HIV-1 strain HTLVIIIB", "assay": "Inhibition of HIV-1 HTLVIIIB replication in PBMC (p24 antigen EIA)", "experimental": "The cells were then infected with virus at a multiplicity of infection (MOI) of 0.1 during a one-hour adsorption period at 37° C. in a humidified 5% CO2 atmosphere. Subsequently, cells were cultured in 96-well microplates (100 μL/well; 2×10^6 cells/mL, triplicate wells) in the presence of various inhibitor concentrations. […] Ag. […] The applied p24 EIA was the unmodified kinetic assay commercially available from Coulter Corporation/Immunotech, Inc. (Westbrook, Me.).\nTo test the therapeutic activity of the compounds of the invention, p24 assays were utilized as previously described. […] 1 during a one-hour adsorption period at 37° C. in a humidified 5% CO2 atmosphere. Subsequently, cells were cultured in 96-well microliter plates ([…]; 2×10^6 cells/mL, triplicate wells) in the presence of various inhibitor concentrations. Aliquots of culture supernatants were removed from the wells on the 7th day after infection for p24 antigen p24 enzyme immunoassays (EIA).\nThe applied p24 EIA was the unmodified kinetic assay commercially available from Coulter Corporation/Immunotech, Inc. (Westbrooke, Me.), which utilizes a murine monoclonal antibody to HIV core protein coated onto microwell strips to which the antigen present in the test culture supernatant samples binds. Percent inhibition of viral replication was calculated by comparing the p24 values from the test substance treated infected cells with p24 values from untreated infected cells (i.e., virus controls)."}},
  "data": [
    {"smiles": "FC(CNC(=S)Nc1ccc(Br)cn1)c1ccccc1", "note": "(stereo not drawn) [Compound 12, β-Fluoro[2-phenethyl]-N′-[2-(5-bromopyridyl)]thiourea]", "values": [
      {"measurement": "fold more potent than delavirdine", "setting": "[1]", "result": 2, "unit": "fold"},
      {"measurement": "fold more potent than nevirapine", "setting": "[1]", "result": 7, "unit": "fold"},
      {"measurement": "fold more potent than delavirdine", "setting": "[2]", "result": 500, "unit": "fold"},
      {"measurement": "fold more potent than nevirapine", "setting": "[2]", "result": 200, "unit": "fold"}
    ]},
    {"smiles": "S=C(NCCOc1ccccc1)Nc1ccc(Br)cn1", "note": "[Compound 10, N-[2-(Phenoxy)ethyl]-N′-[2-(5-bromopyridyl)] thiourea]", "values": [
      {"measurement": "SI (selectivity index = IC50 MTA / IC50 p24)", "setting": "[3]", "result": "18,400"}
    ]},
    {"smiles": "FC(CNC(=S)Nc1ccc(Cl)cn1)c1ccccc1", "note": "(stereo not drawn) [Compound 11, β-Fluoro[2-phenethyl]-N′-[2-(5-chloropyridyl)] thiourea]", "values": [
      {"measurement": "fold more potent than delavirdine", "setting": "[1]", "result": 4, "unit": "fold"},
      {"measurement": "fold more potent than nevirapine", "setting": "[1]", "result": 14, "unit": "fold"},
      {"measurement": "fold more potent than delavirdine", "setting": "[2]", "result": 500, "unit": "fold"},
      {"measurement": "fold more potent than nevirapine", "setting": "[2]", "result": 200, "unit": "fold"}
    ]},
    {"smiles": "S=C(NCCOc1ccccc1)Nc1ccccn1", "note": "[Compound 8, N-[2-(Phenoxy)ethyl]-N′-[2-(pyridyl)]thiourea]", "values": [
      {"measurement": "SI (selectivity index = IC50 MTA / IC50 p24)", "setting": "[3]", "result": "1,100"}
    ]},
    {"smiles": "S=C(NCCOc1ccccc1)Nc1ccc(Cl)cn1", "note": "[Compound 9, N-[2-(Phenoxy)ethyl]-N′-[2-(5-chloropyridyl)]thiourea]", "values": [
      {"measurement": "SI (selectivity index = IC50 MTA / IC50 p24)", "setting": "[3]", "result": ">25,000"}
    ]}
  ]
}
